Pooled drug test results. Numbers come from NIAID ChemDB, via PubChem.

Shared fields: growth or infection tests; species: Mycobacterium tuberculosis

Blank or dashed fields: not listed here. MIC50, MIC90 and the like: level of inhibition, or share of isolates inhibited. Neighbouring rows are from separate reports. MIC bound comes from a single tested concentration. a–b is a range or a potency band. Inhibition is in % at the dose shown (toxicity tests: loss of growth or viability).

compound,method,tested at,cell line,strain,setting,read-out,changes,value
CCN(CC)CCNc1ccc(C)c2oc3ccc(O)cc3c(=O)c12,-,-,-,INH-r,-,MIC,-,12.5 µg/mL
CCCCOc1ccc2nc(C)cc(N/N=C/c3ccc(OC)c4ccccc34)c2c1,-,12.5 µg/mL,VERO,H37Rv,-,inhibition,-,100%
COc1ccc([C@@H]2CC3(C[C@H](c4ccc(OC)cc4)N2)N=c2c(c4c5c6c(C)c(O)c4c(O)c2=NC(=O)/C(C)=C\C=C\[C@H](C)[C@H](O)[C@@H](C)[C@H](O)[C@H](C)[C@H](OC(C)=O)[C@H](C)[C@@H](OC)/C=C/O[C@@](C)(O6)C5=O)N3)cc1,-,-,-,H37Rv,-,MIC,-,0.02 µg/mL
CC1CN(c2c(F)cc3c(=O)c(C(=O)O)cn(C4CC4)c3c2F)CC(C)N1,-,-,-,CSU15,-,MIC,-,≤0.125 µg/mL
CCCCc1ccc2nc(C)cc(N/N=C/c3ccc(OC)c4ccccc34)c2c1,-,-,VERO,H37Rv,-,MIC,-,6.25 µg/mL
COc1ccc(OCC2CCN(c3ccc(OC[C@@]4(C)Cn5cc([N+](=O)[O-])nc5O4)cc3)CC2)c(Cl)c1,-,-,-,H37Rv,-,MIC,-,0.012 µg/mL
COc1cc(OC)cc(-n2c(N)c(-c3nc4ccccc4n3C)c3ccc([N+](=O)[O-])cc3c2=O)c1,BACTEC,6.25 µg/mL,-,H37Rv,-,inhibition,-,28%
Cc1ccc(-n2c(=O)oc3ccc(Cl)cc3c2=O)cc1,-,-,-,CNCTC MY331/88,-,MIC,-,16 µM
COc1cc(C)c2c(=O)c3c(oc2c1)C(=O)c1c(O)c(OC)cc(O)c1C3=O,-,-,-,EMB-R,-,MIC,-,12.5 µg/mL
Cc1ccc(-n2c(=O)oc3ccc([N+](=O)[O-])cc3c2=O)cc1,-,-,-,CNCTC MY331/88,-,MIC,-,62 µM
COc1cccc(-c2ccc(OCC(=O)O)cc2CN2CCN(c3ccccn3)CC2)c1,broth dilution,-,-,H37Rv (ATCC 27294),-,MIC,-,32 µg/mL
C[C@]1(COc2ccc(N3CCN(C/C=C/c4ccc(Cl)c(Cl)c4)CC3)cc2)Cn2cc([N+](=O)[O-])nc2O1,-,-,-,H37Rv,-,MIC,-,0.012 µg/mL
CN(C)CCCN1c2ccc3ccccc3c2Sc2cccc(Cl)c21,BACTEC,-,-,H37Rv,-,MIC,-,3.13 µg/mL
CCOC(=O)c1cn(C)c2c(cc([N+](=O)[O-])c3cccnc32)c1=O,-,-,-,H37Rv,-,MIC90,gyrA mutation A90V,>50 µM
CN[C@@H]1[C@H](O[C@H]2[C@H](O[C@H]3[C@H](O)[C@@H](O)[C@H](N=C(N)N)[C@@H](O)[C@@H]3N=C(N)N)O[C@@H](C)[C@]2(O)C=O)O[C@@H](CO)[C@H](O)[C@H]1O,-,-,-,104396,-,MIC,-,≥2 µg/mL
CCN(CC)CCNc1ccc(CO)c2oc3ccc(O)cc3c(=O)c12,BACTEC,-,-,H37Rv,-,MIC bound,-,>12.5 µg/mL
C/C(=N\NC(=S)N(C)C)c1ccccn1.[Cu][Br],-,-,-,TF274,-,MIC90,-,1.56 µM
Clc1ccc(-c2c(C(c3ccccc3)n3ccnc3)cnn2-c2ccc(Cl)cc2)cc1,-,-,-,ATCC 35828 (pyrazinamide-resistant),-,MIC50,-,≥100 µM
Cc1ccc2oc(=O)n(-c3cccc(Cl)c3)c(=O)c2c1,-,-,-,CNCTC MY331/88,-,MIC,-,16 µM
CCOc1ccc2c(N/N=C/c3ccc(N(CC)CC)cc3)cc(C)nc2c1,-,-,VERO,H37Rv,-,MIC,-,12.5 µg/mL
O=C(O)c1c(Cl)nsc1Cl,BACTEC,12.5 µg/mL,-,H37Rv,-,inhibition,-,0%
CO[C@H]1/C=C/O[C@@]2(C)Oc3c(C)c(O)c4c(O)c(c5c(c4c3C2=O)NC2(CCNCC2)N=5)=NC(=O)/C(C)=C\C=C\[C@H](C)[C@H](O)[C@@H](C)[C@@H](O)[C@@H](C)[C@H](OC(C)=O)[C@@H]1C,-,-,-,ATCC 35822 (isoniazid-resistant),-,MIC,-,0.02 µg/mL
O=c1oc2ccc([N+](=O)[O-])cc2c(=O)n1-c1cccc([N+](=O)[O-])c1,-,-,-,CNCTC MY331/88,-,MIC,-,62 µM
Clc1ccc(-c2c(C(c3ccccc3)n3ccnc3)cnn2-c2ccccc2)cc1,-,-,-,ATCC 35820 (streptomycin-resistant),-,MIC90,-,≥100 µM
CCOc1cc2c(cc1F)n([O-])c(C)c(Cl)[n+]2=O,-,6.25 µg/mL,-,H37Rv,-,inhibition,-,99%
CCN(CC)CCCC(C)Nc1cc(/C=C/c2ccc(Cl)cc2)nc2ccc(N(C)C)cc12,resazurin,-,VERO,H37Rv,-,MIC,-,3.13 µg/mL
Cc1ccc2c(=O)n(-c3ccc(F)cc3)c(=O)oc2c1,-,-,-,CNCTC MY331/88,-,MIC,-,32 µM
NC(=O)c1cnccn1,-,-,-,Isolate 94-735,-,MIC,-,300 µg/mL
CC(C)=CCC/C(C)=C/CNCCNC12CC3CC(CC(C3)C1)C2,-,-,-,-,-,MIC,-,12.5 µM
COc1ccc(-n2c(CCCC(=O)O)nc3c2C(=O)c2ccccc2C3=O)cc1,BACTEC,12.5 µg/mL,-,H37Rv,-,inhibition,-,0%
CC[C@H]1OC(=O)[C@H](C)[C@@H](O[C@H]2C[C@@](C)(OC)[C@@H](O)[C@H](C)O2)[C@H](C)[C@@H](O[C@@H]2O[C@H](C)C[C@H](N(C)C)[C@H]2O)[C@](C)(OC)C[C@@H](C)C(=O)[C@H](C)[C@@H](O)[C@]1(C)O,-,-,-,50194,-,MIC,-,>4 µg/mL
CO[C@H]1/C=C/O[C@@]2(C)Oc3c(C)c(O)c4c(O)c(c5c(c4c3C2=O)NC2(C[C@@H](c3ccccc3)N[C@@H](c3ccccc3)C2)N=5)=NC(=O)/C(C)=C\C=C\[C@H](C)[C@H](O)[C@@H](C)[C@H](O)[C@H](C)[C@H](OC(C)=O)[C@@H]1C,-,-,-,ATCC 35837 (ethambutol-resistant),-,MIC,-,0.02 µg/mL
CC(NC(=O)c1ccccc1C(F)(F)F)c1nnc(SCCOc2ccc(F)cc2)n1Cc1ccc(F)cc1,broth dilution,-,-,H37Rv (ATCC 27294),7 d,MIC,-,>64 µg/mL
C[C@]1(COc2ccc(C3CCN(CC/C=C/c4ccc(C(F)(F)F)cc4)CC3)cc2)Cn2cc([N+](=O)[O-])nc2O1,-,-,-,H37Rv,-,MIC,-,0.003 µg/mL
CC1=CC2OC3C(O)C(O)C(C)(C2(COC(=O)CCl)CC1)C31CO1,BACTEC,12.5 µg/mL,-,H37Rv,-,inhibition,-,-2%
COc1ccc2c(NN)cc(C)nc2c1,-,-,VERO,H37Rv,-,MIC,-,12.5 µg/mL
CCOC(=O)c1cn(CC)c2c(cc([N+](=O)[O-])c3cccnc32)c1=O,-,-,-,BCG,-,MIC90,-,2.5 µM
Cc1ccc2oc(=O)n(-c3ccc(C(F)(F)F)cc3)c(=O)c2c1,-,-,-,CNCTC MY331/88,-,MIC,-,8 µM
CC(=O)Nn1c(N)nc2ccccc21,BACTEC,12.5 µg/mL,-,H37Rv,-,inhibition,-,8%
C[C@]1(COc2ccc(N3CCN(C/C=C/c4ccc(Cl)cc4Cl)CC3)cc2)Cn2cc([N+](=O)[O-])nc2O1,-,-,-,H37Rv,-,MIC,-,<0.12 µg/mL
O=c1oc2ccc(F)cc2c(=O)n1-c1cccc(F)c1,-,-,-,CNCTC MY331/88,-,MIC,-,16 µM
COc1cccc2c1C(=O)c1c(O)c3c(c(O)c1C2=O)C[C@@](O)(/C(C)=N/NC(=O)CO)CC3OC1CC(N)C(O)C(C)O1.Cl,-,-,-,CS-R,-,MIC,-,6.3 µg/mL
Clc1ccc(-n2ncc(C(c3ccccc3)n3ccnc3)c2-c2ccccc2Cl)c(Cl)c1,-,-,-,ATCC 35822 (isoniazid-resistant),-,MIC50,-,23.9 µM
S=C(S)NCCCNC(=S)S,resazurin,-,-,H37Rv,-,MIC bound,-,<6.25 µg/mL
CC1COc2c(N3CCN(C)CC3)c(F)cc3c(=O)c(C(=O)O)cn1c23,-,-,-,ATCC 35820 (streptomycin-resistant),-,MIC50,-,0.6 µM
COc1ccc2nc(-c3ccccc3)cc(N/N=C/c3ccc([N+](=O)[O-])o3)c2c1,-,-,VERO,H37Rv,-,MIC,-,12.5 µg/mL
COc1ccc(CNCCNCCNc2ccccc2)c(OC)c1,-,-,-,-,-,MIC,-,50 µM
NNC(=O)c1ccncc1,-,-,-,Strain 24,-,MIC,-,>8 µg/mL
CNC(=O)COc1ccc(-c2ccc(C#N)cc2)c(CN2CCN(c3ccccn3)CC2)c1,broth dilution,-,-,H37Rv (ATCC 27294),-,MIC,-,64 µg/mL
C[C@@H]1CN(c2c(F)c(N)c3c(=O)c(C(=O)O)cn(C4CC4)c3c2F)C[C@H](C)N1,-,-,-,CSU12,-,MIC,-,≤0.125 µg/mL
CC(C)(C)CC(C)(C)NCCNc1cccc2ncccc12,-,-,-,-,-,MIC,-,3.13 µM
O=C(O)COc1ccc(-c2ccc([N+](=O)[O-])cc2)c(CN2CCN(c3ccccn3)CC2)c1,broth dilution,-,-,H37Rv (ATCC 27294),-,MIC,-,32 µg/mL
Fc1ccc(-c2c(C(c3ccccc3)n3ccnc3)cnn2-c2ccc(F)cc2F)cc1,-,-,-,ATCC 27294,-,MIC90,-,>100 µM
C[C@]1(COc2ccc(N3CCC(OC/C=C/c4ccc(OC(F)(F)F)cc4)CC3)cc2)Cn2cc([N+](=O)[O-])nc2O1,-,-,-,H37Rv,-,MIC,-,0.0015 µg/mL
Fc1ccc(-n2ncc(C(c3ccccc3)n3ccnc3)c2-c2ccccc2)c(F)c1,-,-,-,ATCC 35837 (ethambutol-resistant),-,MIC90,-,≥100 µM
CO[C@H]1/C=C/O[C@@]2(C)Oc3c(C)c(O)c4c(=O)c(c5oc6cc(N7CCN(CC(C)C)CC7)cc(=O)c6nc5c4c3=C2O)NC(=O)/C(C)=C\C=C\[C@H](C)[C@H](O)[C@@H](C)[C@@H](O)[C@@H](C)[C@H](OC(C)=O)[C@@H]1C,-,-,-,H37Rv,-,MBC,-,0.031 µg/mL
CN(Cc1ccc(C(F)(F)F)cc1F)C1CCN(c2ccc(OC[C@@]3(C)Cn4cc([N+](=O)[O-])nc4O3)cc2)CC1,-,-,-,H37Rv,-,MIC,-,0.012 µg/mL
Cc1cnc(C(=O)O)c(C(=O)O)n1,BACTEC,12.5 µg/mL,-,H37Rv,-,inhibition,-,2%
O=c1oc2ccc(Cl)cc2c(=O)n1-c1ccc(Cl)cc1,-,-,-,CNCTC MY331/88,-,MIC,-,4 µM
Cc1ccc2c(c1)[n+](=O)c(Sc1ccccc1)c(CBr)n2[O-],-,6.25 µg/mL,-,H37Rv,-,inhibition,-,17%
CCCCCCCCCCCNCCNCCCCO,-,-,-,-,-,MIC,-,50 µM
Fc1ccc(-c2c(C(c3ccccc3)n3ccnc3)cnn2-c2ccc(F)cc2)cc1,-,-,-,ATCC 35837 (ethambutol-resistant),-,MIC90,-,≥100 µM
CCC#CC#CCN(C)c1cccc2c1CCC(=O)N2,-,-,-,H37Rv,-,MIC,-,>6.25 µg/mL
CO[C@@H](C)[C@@](O)(C(=O)OCC1=CCN2CCC[C@@H]12)C(C)C,BACTEC,-,-,H37Rv,-,MIC bound,-,>12.8 µg/mL
Cc1ccc2c(c1)n([O-])c(CBr)c(Sc1ccccc1)[n+]2=O,-,-,-,H37Rv,-,MIC,-,>6.25 µg/mL
Fc1ccc(CSC(=S)Nc2ccc(F)cc2)cc1,BACTEC,128 µg/mL,-,H37Rv,-,inhibition,-,100%
CC1CN(c2c(F)cc3c(=O)c(C(=O)O)cn(C4CC4)c3c2F)CCN1,-,-,-,CSU28,-,MIC,-,0.25 µg/mL
Cc1cc(=O)n2nc(CSc3nnc(N)s3)sc2n1,resazurin,6.25 µg/mL,-,H37Rv,-,inhibition,-,24%
CC1=C(c2c(C)cc(O)c3c2C(=O)C(c2c(O)c4c(C)cccc4oc2=O)=C(c2c(O)c4c(C)cccc4oc2=O)C3=O)C(=O)c2c(O)cccc2C1=O,-,-,-,MTCS1,-,MIC,-,2.44 µg/mL
COc1ccc(C2SC(N)=Nc3c2c(C)nn3C(=O)Cc2ccccc2)cc1,BACTEC,12.5 µg/mL,-,H37Rv,-,inhibition,-,28%
CCOC(=O)c1ccc(-n2c(=O)oc3ccccc3c2=O)cc1,-,-,-,CNCTC MY331/88,-,MIC,-,8 µM
NC(=O)N/N=C1\CCC(O)CC1CC(=O)O,BACTEC,-,-,H37Rv,-,MIC bound,-,>12.5 µg/mL
c1ccc(-c2c(C(c3ccccc3)n3ccnc3)cnn2-c2ccccc2)cc1,-,-,-,ATCC 35828 (pyrazinamide-resistant),-,MIC50,-,30 µM
C[C@@H]1CC[C@@]2(NC1)O[C@H]1C[C@H]3[C@@H]4CC=C5C[C@@H](O)CC[C@]5(C)[C@H]4CC[C@]3(C)[C@H]1[C@@H]2C,BACTEC,12.5 µg/mL,-,H37Rv,-,inhibition,-,9%
N[C@@H]1CN(c2c(F)cc3c(=O)c(C(=O)O)cn([C@@H]4C[C@@H]4F)c3c2Cl)CC12CC2,resazurin,-,-,Clinical strain,-,MIC,Gyrase Asp94Gly,0.125–0.5 µg/mL
S=C(S)N1CCCCC1,-,-,-,PZA-R,-,MIC,-,0.8 µg/mL
C[C@]1(COc2ccc(N3CCC(COc4ccc5ccccc5c4)CC3)cc2)Cn2cc([N+](=O)[O-])nc2O1,-,-,-,H37Rv,-,MIC,-,0.024 µg/mL